The values that follow come from US20050163775A1, “Combination therapy for B cell disorders” (Genentech, Inc., priority 2003, published 2005).

Sequences of proteins named here, by UniProt entry; tags and fusion partners are left off. Residues count along the entry.
UniProt Q9Y275, 82-285: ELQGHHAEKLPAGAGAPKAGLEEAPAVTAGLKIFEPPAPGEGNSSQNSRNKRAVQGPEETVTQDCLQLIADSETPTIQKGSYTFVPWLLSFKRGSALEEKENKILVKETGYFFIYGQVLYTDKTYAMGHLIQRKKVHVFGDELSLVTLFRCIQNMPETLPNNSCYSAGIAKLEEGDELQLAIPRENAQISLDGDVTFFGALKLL

This experiment addresses T1, BAFF (Homo sapiens, UniProt Q9Y275).
T1 construct: A DNA fragment encoding human BAFF (residues 82-285) was cloned; His-tag (with thrombin cleavage site) (N, cleaved yes); made in house; host or cells: E. coli BL21 (DE3)
Nature of the experiment: Competitive displacement ELISA (biotinylated miniBR3), 17-mers vs BR3 ECD. The class given is binding. The note with it: from IC50 values of competitive displacement ELISA. In general terms: In an ELISA, binding on a coated surface is turned into a signal by an enzyme label.

As for `CC(=O)N[C@@H](CCC(=O)O)C(=O)N[C@H]1CSSC[C@@H](C(=O)NCC(=O)N[C@@H](CC(C)C)C(=O)N[C@@H](CC(C)C)C(=O)N[C@@H](CCCNC(=N)N)C(N)=O)NC(=O)[C@@H]2CCCN2C(=O)[C@H](C(C)C)NC(=O)[C@H](Cc2c[nH]c3ccccc23)NC(=O)[C@H](Cc2c[nH]cn2)NC(=O)[C@H](CCCNC(=N)N)NC(=O)[C@H](C(C)C)NC(=O)[C@H](CC(C)C)NC(=O)[C@H](CC(C)C)NC(=O)[C@H](CC(=O)O)NC(=O)[C@H](Cc2ccccc2)NC1=O` [BLyS0048], the “affinity for BAFF relative to BR3 ECD” value is recorded as “greater affinity for BAFF than the 62-mer BR3 ECD”. For the compound “Ac-ECFDLLVRAWVPCSVLK-NH2 (N-acetyl, C-amide; sequence is synthesized) [BLyS0051]”, the “affinity for BAFF relative to BR3 ECD” value is given as “greater affinity for BAFF than the 62-mer BR3 ECD”. The entry for “Ac-ECFDLLVRHWVACGLLR-NH2 (N-acetyl, C-amide; sequence is synthesized) [BLyS0027]” is “greater affinity for BAFF than the 62-mer BR3 ECD”.
